# B1: non chimeric recombinant human TBP-1 (HPLC purified, of CHO origin) (receptor)
# chain: DSVCPQGKYIHPQNNSICCTKCHKGTYLYNDCPGPGQDTDCRECESGSFTASENHLRHCLSCSKCRKEMGQVEISSCTVDRDTVCGCRKNQYRHYWSENLFQCFNCSLCLNGTVHLSCQEKQNTVCTCHAGFFLRENECVSCSNCKKSLECTKLCLPQIEN
# Target: cell surface TNF on PMA-LPS-GM6001-activated human monocytic THPI cells (human, UniProt P01375 1-233)
# Assay: cell-based or functional assay
binder,measurement,value
B1,protection of activated THPI cells from TBP-YopP toxicity,100 fold excess

# — patent US20080287356A1 (YEDA RESEARCH AND DEVELOPMENT, published 2008)
